Legend:
[1] = target: Orf9b Lambda variant (P10S), refolded (SARS-CoV-2) (UniProt P0DTD2); assay: SEC
[2] = target: Orf9b Lambda variant (P10S), refolded (SARS-CoV-2) (UniProt P0DTD2); assay: fluorescence polarisation
[3] = target: Orf9b Omicron variant (P10S, ∆27–29), refolded (SARS-CoV-2) (UniProt P0DTD2); assay: SEC
[4] = target: Orf9b Omicron variant (P10S, ∆27–29), refolded (SARS-CoV-2) (UniProt P0DTD2); assay: fluorescence polarisation

Orf9b Lambda variant (P10S), refolded (from UniProt P0DTD2 1-97) (natural protein)
stoichiometry N [1]: 2
Kd [2]: 0.25 µM
koff [2]: 0.02 s⁻¹

Orf9b Omicron variant (P10S, ∆27–29), refolded (from UniProt P0DTD2 1-97) (natural protein)
stoichiometry N [3]: 2
Kd [4]: 3.1 µM
koff [4]: 0.25 s⁻¹
